# Deep mutational scan of the Zika virus protease

Chain scanned (Zika virus MR766; NS2B from position 2 to 131, then the start of NS3):
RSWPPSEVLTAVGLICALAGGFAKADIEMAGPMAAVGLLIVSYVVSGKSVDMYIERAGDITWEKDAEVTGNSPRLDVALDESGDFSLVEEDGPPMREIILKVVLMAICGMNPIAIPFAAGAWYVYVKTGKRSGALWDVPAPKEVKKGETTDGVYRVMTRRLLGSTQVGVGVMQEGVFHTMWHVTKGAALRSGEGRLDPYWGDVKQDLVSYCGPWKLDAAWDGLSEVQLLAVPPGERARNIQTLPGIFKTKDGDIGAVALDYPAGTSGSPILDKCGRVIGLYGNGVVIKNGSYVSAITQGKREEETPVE

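Libraries of single mutants were passaged as virus pools on Huh-7.5 cells. The effect is the change in frequency of a mutant, normalised to wild type, as a mean of three replicate libraries (two for positions 207-308).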

Values are log2 effects on growth: 0 is wild type, lower means poorer growth.
A change reads original residue, position, new residue.
All changes here are to isoleucine.
Position 1 still belongs to NS2A. In the paper, -1 or higher counts as tolerated.
Positions 1-103, 104-206 and 207-308 were made and measured as separate libraries.
Six mutants with high scores were retested singly and none clearly outgrew wild type, so positive values are not proof of better growth.

For Q241I the result was -5.95.
For T242I the result was -5.51.
For L243I the result was -0.57.
For P244I the result was -4.73.
For G245I the result was -5.24.
For F247I the result was -5.84.
For K248I the result was 0.08.
For T249I the result was -4.03.
For K250I the result was -2.99.
For D251I the result was -5.29.
For G252I the result was -5.57.
For D253I the result was -3.46.
For G255I the result was -6.64.
For A256I the result was -5.68.
For V257I the result was -4.60.
For A258I the result was -5.32.
For L259I the result was 0.81.
For D260I the result was -4.20.
For Y261I the result was -4.67.
For P262I the result was -4.65.
For A263I the result was -5.52.
For G264I the result was -4.45.
For T265I the result was -3.73.
For S266I the result was -5.06.
For G267I the result was -5.57.
For S268I the result was -4.43.
For P269I the result was -4.34.
For L271I the result was -4.22.
For D272I the result was -3.92.
For K273I the result was -3.03.
For C274I the result was 0.68.
For G275I the result was -3.78.
For R276I the result was -5.33.
For V277I the result was -3.48.
For G279I the result was -4.87.
For L280I the result was -5.31.
For Y281I the result was -5.18.
For G282I the result was -4.51.
For N283I the result was -6.02.
For G284I the result was -4.05.
For V285I the result was -5.23.
For V286I the result was -1.52.
For K288I the result was -5.43.
For N289I the result was -5.88.
For G290I the result was -5.07.
For S291I the result was -4.93.
For Y292I the result was -4.46.
For V293I the result was -0.68.
For S294I the result was -6.15.
For A295I the result was -4.15.
For T297I the result was -2.54.
For Q298I the result was -4.06.
For G299I the result was -4.76.
For K300I the result was -2.91.
For R301I the result was -2.71.
For E302I the result was 1.77.
For E303I the result was -0.56.
For E304I the result was 0.01.
For T305I the result was -1.87.
For P306I the result was -1.48.
For V307I the result was -0.95.
For E308I the result was -0.39.

Values reported by Ni et al. 2025 (doi:10.1038/s41467-025-63602-z).